For at least one entry, the source does not settle the construct or the ends of the probe.
Test system: CodY (Clostridium difficile JIR8094)
Test: EMSA
Details: 10 mM GTP, 2 mM Ile/Leu/Val, SinR/SinR': 10 mM Tris-HCl pH 8.0, 0.1 mM DTT, 150 mM KCl, 0.5 mM EDTA, 0.1% Triton X-100, 12.5% glycerol (SinR+SinR' premix 30 min RT). CodY: 10 mM Tris pH 7.5, recombinant protein, protein details: 6His (pET16B)

Sequence | binding result (shift at 400 nM CodY, label: 5'-32P (PNK, ORG721)) | binding result (positive control, label: 32P)
TAAAATAGAAAATTTTTTTAATTTTCAAAATATATTCTACATATCTAATATGTAATTAC (double strand) [sin locus upstream, putative CodY site (ORG721/ORG722)] | binds | –
TAGTTATAACTTCAAAAAAGACTGAAAATTAAGAAAAAAGAAATATAAAT (double strand) [tcdR upstream CodY site (ORG719/ORG720)] | – | binds
